# For some of these results: No signal at the amounts used counts as a negative. For some of these results: For at least one entry, the source does not settle the construct or the ends of the probe. For some of these results: Results from cells or extracts need not show a direct contact. For some of these results: Where a protein sequence is shown, tags need not be part of it.
# Sequences of proteins named here, by UniProt entry; tags and fusion partners are left off. Residues count along the entry.
# UniProt P02769, 25-607: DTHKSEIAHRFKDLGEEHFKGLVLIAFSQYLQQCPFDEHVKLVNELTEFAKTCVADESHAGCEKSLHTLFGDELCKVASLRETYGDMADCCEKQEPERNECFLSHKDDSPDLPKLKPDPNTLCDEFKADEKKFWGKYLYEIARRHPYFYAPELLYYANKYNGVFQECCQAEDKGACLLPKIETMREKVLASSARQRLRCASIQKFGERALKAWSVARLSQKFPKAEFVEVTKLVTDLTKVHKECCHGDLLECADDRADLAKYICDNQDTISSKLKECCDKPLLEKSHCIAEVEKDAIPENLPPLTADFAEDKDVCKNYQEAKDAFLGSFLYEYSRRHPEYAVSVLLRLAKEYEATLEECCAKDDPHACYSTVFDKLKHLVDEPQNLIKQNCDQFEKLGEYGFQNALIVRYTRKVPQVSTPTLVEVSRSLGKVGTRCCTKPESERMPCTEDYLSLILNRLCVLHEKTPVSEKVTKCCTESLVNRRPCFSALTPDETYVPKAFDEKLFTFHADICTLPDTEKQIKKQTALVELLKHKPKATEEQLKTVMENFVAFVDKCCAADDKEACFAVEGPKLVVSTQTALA
# Key:
# [1] = target: T1, SNAP50 (parasite extract) (Trypanosoma cruzi) (UniProt Q4D342); experiment: pull-down; conditions: total extract, immunoblot; extracts/pull-down: 12 mM HEPES, 4 mM Tris-HCl pH 8, 1 mM EDTA, 0.5 mM DTT, 6% glycerol, poly(dI-dC), room temperature; protein in an extract; label: 5' biotin on sense strand
# T1 sequence (looked up, limits assumed): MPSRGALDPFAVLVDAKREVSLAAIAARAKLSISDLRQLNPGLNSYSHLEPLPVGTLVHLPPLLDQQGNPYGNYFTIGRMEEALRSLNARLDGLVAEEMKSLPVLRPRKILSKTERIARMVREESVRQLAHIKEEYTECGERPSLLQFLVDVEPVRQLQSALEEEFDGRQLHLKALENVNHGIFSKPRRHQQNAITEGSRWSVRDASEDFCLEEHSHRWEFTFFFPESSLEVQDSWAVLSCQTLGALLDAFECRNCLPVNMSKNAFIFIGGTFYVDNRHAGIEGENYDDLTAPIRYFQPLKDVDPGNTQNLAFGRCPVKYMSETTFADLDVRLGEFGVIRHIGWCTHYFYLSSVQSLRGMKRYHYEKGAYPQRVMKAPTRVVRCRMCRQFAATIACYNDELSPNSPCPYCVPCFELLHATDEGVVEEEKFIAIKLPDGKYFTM
# [2] = target: T2, TBP (parasite extract) (Trypanosoma cruzi) (UniProt Q4DK05); experiment: pull-down; conditions: total extract, immunoblot; extracts/pull-down: 12 mM HEPES, 4 mM Tris-HCl pH 8, 1 mM EDTA, 0.5 mM DTT, 6% glycerol, poly(dI-dC), room temperature; protein in an extract; label: 5' biotin on sense strand
# T2 sequence (looked up, limits assumed): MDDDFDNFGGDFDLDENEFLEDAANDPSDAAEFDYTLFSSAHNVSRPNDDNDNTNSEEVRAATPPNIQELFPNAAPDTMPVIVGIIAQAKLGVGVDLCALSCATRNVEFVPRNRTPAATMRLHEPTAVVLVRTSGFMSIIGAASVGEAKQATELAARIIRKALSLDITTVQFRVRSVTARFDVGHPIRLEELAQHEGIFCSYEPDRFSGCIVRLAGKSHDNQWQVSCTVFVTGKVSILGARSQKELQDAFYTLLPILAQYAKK
# [3] = target: T1, SNAP50 (parasite extract) (Trypanosoma cruzi); experiment: EMSA immunoblot; conditions: nuclear extract, UV, native gel, likely via protein-protein contacts; EMSA: 20 mM Tris pH 7.9, 60 mM KCl, 5 mM MgCl2, 10 mM DTT, 6% glycerol, 0.2 mg/ml BSA, 30 min 37 C; protein in an extract
# [4] = target: T1, SNAP50 (parasite extract) (Trypanosoma cruzi); experiment: UV crosslinking, SDS-PAGE immunoblot; conditions: nuclear or total extract, denatured, no direct crosslink; protein in an extract
# [5] = target: T2, TBP (parasite extract) (Trypanosoma cruzi); experiment: UV crosslinking, SDS-PAGE immunoblot; conditions: nuclear extract, ~90 kDa complex; protein in an extract
# BSA (bovine) = BSA (bovine) (UniProt P02769); experiment: EMSA; conditions: 6.35 uM, with and without UV; EMSA: 20 mM Tris pH 7.9, 60 mM KCl, 5 mM MgCl2, 10 mM DTT, 6% glycerol, 0.2 mg/ml BSA, 30 min 37 C; commercial protein; label: 5' 32P on one strand
Sequence,binding result [1],binding result [2],other results
CCCTGGCTCAGCCGGCCACCTCAACGTGGTGCCAGGGTCTAGTACTCTTTGCTAGAGAGGAAGCTAAGCGCCTGCTG (double strand) [Biot-dsPr77],binds,binds,
CCCTGGCTCAGCCGGCCACCTCAACGTGGTGCCAGGGTCTAGTACTCTTTGCTAGAGAGGAAGCTAAGCGCCTGCTG (double strand) [dsPr77 unlabelled],,,binding result [3]: binds; binding result [4]: no binding; binding result [5]: binds
CCCTGGCTCAGCCGGCCACCTCAACGTGGTGCCAGGGTCTAGTACTCTTTGCTAGAGAGGAAGCTAAGCGCCTGCTG (double strand) [dsPr77],,,binding result (BSA (bovine)): no binding
GGGTTTTTGTACACGGTCCCAAGTGCCGCGAAGGACCCCTCATCAAAATTGAAAACCGTTGTGGAACACAACTTCCTTTCAACTAACGCT (double strand) [Biot-SL],binds,binds,
GGTACATCCTCGACGGCATCTCAGCCCTGAGAAAGGAGACATGTAACAAGAGTAACATGTGTGAAAGCAGCAAAGAGG / CCTCTTTGCTTTCACACATGTTACTCTTGTTACATGTCTCCTTTCTCAGGGCTGAGATGCCGTCGAGGATGTACC [Biot-IL6],no binding,no binding,
